We go through two molecules from article PMC7509637 (Advanced Science, 2020).

One data set relates to Aβ fibrils. Put plainly: AFM of fibrils, FiberApp statistical analysis. Here is the method:
Aβ incubated in the presence or absence of FapCS, FapC monomers, FapC fibrils or bLgS were subjected to TEM imaging. After incubation for 12 h, a drop of sample was applied on a glow‐discharged carbon‐coated copper grid. After 1 min, the sample was blotted and then negatively stained with uranyl acetate (1%) for 30 s. The dried grid was then imaged with a Technei F20 TEM at 200 kV. For AFM, a drop of sample was placed on freshly cleaved mica surface and rinsed with water after 2 min and dried with pressurized air. The sample was scanned with an AFM (Nanoscope VIII Multimode Scanning Force Microscopes, Bruker), covered with an acoustic hood to minimize the vibrational noise. Images were acquired under the tapping mode with a silicon nitride cantilever (Bruker). AFM images were processed with Nanoscope Analysis 1.5 software to flatten the background and to calculate the statistical parameters.

Data set [1] in a line: X-ray diffraction on oriented fibrils. Conditions: Figure S9; for intersheet distance: equatorial reflection; for interstrand distance: meridional reflection.

For the molecule amyloid beta [Aβ], the “pitch size of fibrils” value in the data set with Aβ fibrils (FiberApp) is reported as 43 nm. This molecule also displayed a fibril diameter in the data set on Aβ fibrils (from fibril heights, mean ± SD) of 5.1 ± 1.0 nm. In data set [1], this molecule yielded an intersheet distance of 9.6 Å and an interstrand distance of 4.7 Å.

B1: FapC fibrils: FapC incubated in deionized water at 37 °C for 1 week, nonsonicated fibrils (protein)
chain: GNEGGWHPPKPNPQSNNKGGATALVVDTQQNYNNKVSNFGTLNNASVSGSIKDASGNVGVNVAAGDNNQQANAAALASADASFVFGTATASTSVLQSGYGNTLNNYSNPNTASLSNSANNVSGNLGVNVAAGNFNQQKNDLAAAVSNGQYSTAGSAASQTSTGNTTVNSANYAYGGTYVSLKLNADGSYKGTSDQIGDVYLDTWEGQTHPGGSNTGHIDVDSQAQGAKDLNHDGGAFAFKEKGDVDLKGTVSGFIPAIVGFKTPVTNNASLSNSLQNVSGNVGVNIAAGGGNQQSNSLSIAAGCSSCPAGGESLGF
In data set [1], B1 registered an intersheet distance of 9.6 Å and an interstrand distance of 4.7 Å.
